One data set relates to N=C(N)NCCC[C@H](N)C(=O)O. The data set can be described thus: purified protein. The settings on record: 100 mM CHES-NaOH pH 9.0, 30 µM PLP, 50°C.
The next data set deals with NCCCC[C@H](N)C(=O)O. The data set can be described thus: purified protein. To be noted: 100 mM CHES-NaOH pH 9.0, 30 µM PLP, 50°C.

What is called kcat is the maximal rate divided by the concentration of active sites. Usually kcat/Km stands for the turnover number divided by the Michaelis constant. As for “Lyr (lysine racemase) (Proteus mirabilis; S394Y/T391Y)”, in the data set on N=C(N)NCCC[C@H](N)C(=O)O, the kcat is 0.383 s⁻¹. Further, in the data set on NCCCC[C@H](N)C(=O)O, the kcat/Km was determined as 75 M⁻¹ s⁻¹.
